The target in assay [1] is SARS-CoV-2 Omicron subvariant BA.2 RBD (SARS-CoV-2). Briefly: ELISA [D].
Assay [2] deals with SARS-CoV-2 RBD (B.1.351) domain (SARS-CoV-2). Put plainly: ELISA. The arrangement: unit not given beside the values. A general note: ELISA stands for enzyme-linked immunosorbent assay.

B1: COV2-2196 (parental IgG1 version) (antibody, V domains shown)
VH: QMQLVQSGPEVKKPGTSVKVSCKASGFTFMSSAVQWVRQARGQRLEWIGWIVIGSGNTNYAQKFQERVTITRDMSTSTAYMELSSLRSEDTAVYYCAAPYCSSISCNDGFDIWGQGTMVTVSS
VL: not shown
For the molecule B1, the binding result in assay [1] is “no binding”. In assay [2], this molecule gave an AUC of 3.

These data come from patent US20240336672A1 (INSTITUT PASTEUR, published 2024).
